Each structure is given as a SMILES string.

A word on the Kd: it is the constant that tells how readily two partners part at equilibrium.

This test addresses T1, Matrix protein 2 (Influenza A virus (strain A/Chicken/Weybridge H7N7), UniProt P05778).
T1 sequence (P05778 whole entry): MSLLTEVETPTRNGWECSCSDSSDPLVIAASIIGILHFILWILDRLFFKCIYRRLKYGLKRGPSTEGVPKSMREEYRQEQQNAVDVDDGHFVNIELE
In words: Binding affinity to Influenza A Weybridge(H7N7) virus Matrix protein 2 by spectrophotometry.

`C[C@@H](N)C12CC3CC(CC(C3)C1)C2` [(alpha-methyl-1-adamantyl)methylamine] showed a Kd of 16 nM.
